The results in this text go back to patent US20250295657A1, “Methods and Compositions for Treatment of Inflammation and Inflammatory Conditions” (University of Pittsburgh - Of the Commonwealth System of …, priority 2022, published 2025).

This assay deals with D614G spike pseudotyped virus. The assay can be described thus: D614G spike pseudotyped virus infection in iPSCs transfected with the human ACE2 receptor.

Take `O=C(OCc1cc(=O)oc2cc(O)c(O)cc12)c1nn(-c2ccccc2)c(=O)c2ccccc12` [compound 958]: the “D614G spike pseudotyped virus infection” value (2 μM) is “decreased”.
With `O=C(NCc1cc(=O)oc2cc(O)c(O)cc12)c1nn(-c2ccccc2)c(=O)c2ccccc12` [958ami], the “D614G spike pseudotyped virus infection” value (5 μM) was “decreased”.
